A mixed list of measured activities; the numbers were collected in NIAID ChemDB.

Shared fields: enzyme or target tests; organism: HIV-1; target: gp120; measure: IC50

Lines come from different laboratories, so protocols vary. ICn: concentration for n% inhibition. Blank or dashed fields: not listed here.

SMILES,strain,method,result
O=C(O[C@@H]1Cc2c(O)cc(O)cc2O[C@@H]1c1cc(O)c(O)c(O)c1)c1cc(O)c(O)c(O)c1,-,fluorescence,>50 µM
COC(=O)C(=O)OC1(C(=O)O)C[C@@H](OC(=O)/C=C/c2ccc(O)c(O)c2)C(O)[C@H](OC(=O)/C=C/c2ccc(O)c(O)c2)C1,LAI,binding,>97 µM
CC[C@H](C)/C=C(C)/C=C/C1=CC2=CC(=O)[C@]3(C)OC(=O)[C@@H](C(C)=O)[C@@H]3C2=CO1,-,ELISA,114 µM
O=C(O)c1cc[c]([Sb](=[O])([OH])[OH])cc1[N+](=O)[O-],-,ELISA,1.75 µM
CC[C@H](C)/C=C(C)/C=C/C1=CC2=CC(=O)[C@]3(C)OC(=O)C(C(C)=O)C3C2CO1,-,ELISA,>260 µM
O=C1c2c(O)cc(O)c(O)c2O[C@H](c2ccc(O)cc2)[C@H]1O,-,ELISA,>50 µg/mL
COC(=O)C(=O)N1CCC[C@@H]1C(=O)N[C@H](Cc1ccccc1)C(=O)OCc1ccccc1,-,ELISA,300 µM
CC[C@H](C)/C=C(C)/C=C/C1=CC2=C(Cl)C(=O)[C@@]3(C)OC(=O)C(C(C)=O)=C3C2=CO1,-,ELISA,>300 µM
O=S(=O)(O)c1cc(S(=O)(=O)O)c2c(Nc3ccnc4cc(Cl)ccc34)ccc(S(=O)(=O)O)c2c1,-,binding,1000 µg/mL
Cc1cn([C@H]2C[C@H](N=[N+]=[N-])[C@@H](CO)O2)c(=O)[nH]c1=O,-,binding,>100 µg/mL
O=C(/C=C/c1ccc(O)c(O)c1)O[C@@H]1C[C@](OC(=O)/C=C/c2ccc(O)c(O)c2)(C(=O)O)C[C@@H](O)[C@H]1O,LAI,binding,>83 µM
CC[C@H](C)/C=C(C)/C=C/C1=CC2=C(Cl)C(=O)[C@](C)(O)[C@H](CC(C)=O)C2=CO1,-,ELISA,3.9 µM
O=C1C[C@@H](c2cc(O)ccc2O)Oc2cc(O[C@@H]3C[C@@H](O)[C@H](O)[C@@H](CO)O3)cc(O)c21,-,ELISA,<16 µg/mL
CC[C@H](C)/C=C(C)/C=C/C1=CC2=C(Cl)C(=O)[C@]3(C)OC(=O)[C@@H](C(C)=O)[C@@H]3C2=CO1,-,ELISA,6.6 µM
CC[C@H](C)/C=C(C)/C=C/C1=CC2=C(Cl)C(=O)[C@@]3(C)OC(=O)C(C(C)=O)=C3C2=CO1,-,-,13 µg/mL
CC[C@H](C)C[C@H](C)C(=O)O[C@@]1(C)C(=O)C2=COC(/C=C/C(=O)O)=CC2=C(Cl)C1=O,-,ELISA,>260 µM
CCCCCCCCCCCCCCCC(=O)N(CCCCCCCCCCC(=O)O)CC(O)C(O)C(O[C@@H]1O[C@H](CO)[C@H](O)[C@H](O)[C@H]1O)C(O)CO,-,radiometric,0.7 µM
CC[C@H](C)/C=C(C)/C=C/C1=CC2=C(Cl)C(=O)[C@](C)(O)C(=O)C2=CO1,-,-,2.6 µg/mL
O=C(C=Cc1ccc(O)c(O)c1)O[C@@H]1C[C@](O)(C(=O)O)C[C@@H](O)[C@H]1O,-,ELISA,>400 µg/mL
O=c1c(O)c(-c2ccc(O)cc2)oc2cc(O)cc(O)c12,-,binding,>100 µg/mL
CC[C@H](C)/C=C(C)/C=C/C1=CC2=CC(=O)[C@](C)(O)[C@H](OC(C)=O)[C@H]2CO1,-,ELISA,>270 µM
O=C1c2c(O)cc(O[C@@H]3C[C@@H](O)[C@H](O)[C@@H](CO)O3)cc2O[C@H](c2ccc(O)cc2)[C@H]1O,-,ELISA,>250 µg/mL
CC[C@H](C)/C=C(C)/C=C/C1=CC2=C(Cl)C(=O)[C@@](C)(O)[C@H](O)C2=CO1,-,ELISA,9.4 µM
COC(=O)C(=O)N1CCC[C@H]1/C=C\[C@@H](Cc1ccccc1)C(=O)OCc1ccccc1,-,ELISA,>1000 µg/mL
CC[C@H](C)/C=C(C)/C=C/C1=CC2=C(Cl)C(=O)[C@](C)(OC(C)=O)C(=O)C2=CO1,-,ELISA,>250 µM
CC[C@H](C)/C=C(C)/C=C/C1=CC2=C(Cl)C(=O)[C@](C)(OC(C)=O)C(=O)C2=CO1,-,ELISA,>250 µM
O=C1c2c(O)cc(O)cc2O[C@H](c2ccc(O)cc2)[C@H]1O,-,ELISA,<20 µg/mL
CC[C@H](C)/C=C(C)/C=C/C1=CC2=C(Cl)C(=O)[C@](C)(O)[C@H](O)C2=CO1,-,ELISA,14.6 µM

For reference, 3 entries again:

| SMILES | strain | method | result |
|---|---|---|---|
| CC[C@H](C)/C=C(C)/C=C/C1=CC2=C(Cl)C(=O)[C@@](C)(O)[C@H](O)C2=CO1 | - | ELISA | 9.4 µM |
| CC[C@H](C)/C=C(C)/C=C/C1=CC2=C(Cl)C(=O)[C@](C)(OC(C)=O)C(=O)C2=CO1 | - | ELISA | >250 µM |
| COC(=O)C(=O)N1CCC[C@@H]1C(=O)N[C@H](Cc1ccccc1)C(=O)OCc1ccccc1 | - | ELISA | 300 µM |